Laboratory results published in US20150203865.
For at least one entry, the source does not settle the construct or the ends of the probe. Where cells or extracts were used, other partners may take part. Where a protein sequence is shown, tags need not be part of it.

Molecular target: T1, AGO1 (Arabidopsis thaliana) (UniProt O04379)
T1 sequence (looked up, limits assumed): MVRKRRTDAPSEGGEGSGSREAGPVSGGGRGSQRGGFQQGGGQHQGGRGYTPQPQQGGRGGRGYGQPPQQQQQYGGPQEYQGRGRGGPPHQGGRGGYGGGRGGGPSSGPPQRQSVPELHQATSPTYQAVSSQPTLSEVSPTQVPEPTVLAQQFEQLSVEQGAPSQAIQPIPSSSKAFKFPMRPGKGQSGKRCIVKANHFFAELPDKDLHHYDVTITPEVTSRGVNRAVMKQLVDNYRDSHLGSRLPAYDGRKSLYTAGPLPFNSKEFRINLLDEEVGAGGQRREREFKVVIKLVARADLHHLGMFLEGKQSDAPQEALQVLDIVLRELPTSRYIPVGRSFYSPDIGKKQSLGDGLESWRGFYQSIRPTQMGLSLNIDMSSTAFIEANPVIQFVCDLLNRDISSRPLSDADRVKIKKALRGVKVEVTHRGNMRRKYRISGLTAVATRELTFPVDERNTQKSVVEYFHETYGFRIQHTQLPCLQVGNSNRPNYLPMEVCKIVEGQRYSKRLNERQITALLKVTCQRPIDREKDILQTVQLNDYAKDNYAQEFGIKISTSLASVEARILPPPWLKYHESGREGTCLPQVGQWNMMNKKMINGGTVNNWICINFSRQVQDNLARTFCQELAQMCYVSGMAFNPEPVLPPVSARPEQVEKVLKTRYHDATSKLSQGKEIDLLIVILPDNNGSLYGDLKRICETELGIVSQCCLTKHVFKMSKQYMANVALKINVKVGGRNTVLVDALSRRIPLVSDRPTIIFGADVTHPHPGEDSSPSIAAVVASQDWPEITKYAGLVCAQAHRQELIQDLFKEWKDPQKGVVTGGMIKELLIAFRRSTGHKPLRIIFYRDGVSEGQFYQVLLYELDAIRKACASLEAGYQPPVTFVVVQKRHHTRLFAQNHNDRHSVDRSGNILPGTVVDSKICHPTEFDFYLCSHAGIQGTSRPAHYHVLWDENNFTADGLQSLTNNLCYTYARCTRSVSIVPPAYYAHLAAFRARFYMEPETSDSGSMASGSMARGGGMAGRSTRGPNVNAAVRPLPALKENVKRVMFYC
Experiment: pull-down
Settings: AGO1-IP then RT-PCR; infected leaves 24, 32, 48 hpi; hardly detected in mixed control; protein in an extract

UACAUUGUGGAUCUUGUAGGU [Bc-siR3.2]: binds.

UUGUGGAUCUUGUAGGUGGGC [Bc-siR3.1]: binds.

UUUGACUCGGAAUGUAUACUU [Bc-siR5]: binds.
